Experimental data from patent publication US11857560B2, “Pharmaceutical compositions comprising substituted nucleotides and nucleosides for treating viral infections” (priority 2013, dated 2024).

What follows are compounds tested on HCV Replicon GT-1b (assay: microbe, parasite or virus in culture). Conditions: Hepatitis C virus, GT1B, read-out: HCV Replicon Assay EC50 uM.
Work on `C[C@@]1(O)C(O)[C@@H](CO)O[C@H]1n1ccc(=O)[nH]c1=S` (some centres unmarked) [ENUC-01850-1] yielded an EC50 greater than 100 µM. Compound `O=c1ccn([C@@H]2O[C@H](CO)C(O)[C@@H]2O)c(=S)[nH]1` (some centres unmarked) [ENUC-01894-2] has an EC50 greater than 100 µM. Compound `C[C@@]1(O)C(O)[C@@H](CO)O[C@H]1n1ccc(=S)[nH]c1=O` (some centres unmarked) [ENUC-01916-1] has an EC50 greater than 100 µM. Work on `CC(C)OC(=O)[C@H](C)NP(=O)(OC[C@H]1O[C@@H](n2ccc(=S)[nH]c2=O)[C@](C)(F)C1O)Oc1ccccc1` (some centres unmarked) [ENUC-01943-1] yielded an EC50 greater than 100 µM. Work on `C[C@@]1(F)C(O)[C@@H](CO)O[C@H]1n1ccc(=S)[nH]c1=O` (some centres unmarked) [ENUC-01946-1] yielded an EC50 greater than 100 µM. `C[C@H](NP(=O)(O)OC[C@H]1O[C@@H](n2ccc(=O)[nH]c2=S)[C@](C)(O)C1O)C(=O)O` (some centres unmarked) [ENUC-01997-1] gave an EC50 greater than 100 µM. `CC(C)OC(=O)[C@H](C)NP(=O)(OC[C@H]1O[C@@H](n2ccc(=S)[nH]c2=O)[C@@H](O)C1O)Oc1ccccc1` (some centres unmarked) [ENUC-02071-1] showed an EC50 greater than 100 µM. `CC(C)OC(=O)[C@H](C)NP(=O)(OC[C@@]1(N=[N+]=[N-])O[C@@H](n2ccc(=S)[nH]c2=O)[C@@H](O)C1O)Oc1ccccc1` (some centres unmarked) [ENUC-02083-1] showed an EC50 greater than 100 µM.
